This passage reports calculated EC50, neutralization of SARS-CoV-2 pseudotyped virus results from patent publication US20210371504A1.

This test concerns the target SARS-CoV-2 Spike protein on pseudotyped virus (isolate BetaCoV/Wuhan-Hu-1/2019) (SARS-CoV-2 Wuhan-Hu-1) (UniProt P0DTC2). In words: cell-based or functional assay.

Take S309 N55Q MLNS GAALIE (antibody): the calculated EC50, neutralization of SARS-CoV-2 pseudotyped virus was 0.0221 µg/mL.
